Source: US20120258127A1 (priority 2010, published 2012)

System: PBMC from vaccinated and challenged pigs
Experiment: Specificity of IFN-γ responses: PBMC stimulation with viruses, recombinant proteins, peptide pools and peptides
Assay type: cell-based
Conditions: titrations of individual peptides against PBMC from an individual animal

NKYFEPRDSYFQQYML
Recognition of individual antigenic peptides (IFN-γ): recognition
